Measured data: PubChem BioAssay AID1259414 (Drosophila RNAi Screening Center, 2018)

Screen: 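Host factors increasing or decreasing Wolbachia levels in cultured fly cells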 (primary screen)
Cells: Drosophila JW18 cells infected with Wolbachia
Knock-down reagent: long dsRNA against Drosophila genes, 0.25 µg dsRNA per well of a 384-well plate
Timing: 5 days
Conditions: cells persistently infected with Wolbachia before knock-down; no added drug
Detection: 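Automated imaging of bacterial rRNA staining divided by host cell count, reported as plate-normalised robust z-score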
Direction: Wolbachia per cell robust z: higher = more Wolbachia per host cell than the plate typical
Active means: 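Hit when robust z is 1.5 or more, or -1.5 or less, in at least two of three replicates; excludes dsRNAs with several or no targets, genes not expressed in JW18 and well A1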
The deposit covers about 24,000 reagents; below is a random part of those with a known target gene and a result. Over the whole deposit, about 1,210 (5%) got an active call. 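Inactive calls also include excluded dsRNAs with several or no targets, genes unexpressed in JW18, and well A1, regardless of score.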 Names joined by + are all predicted targets of the reagent. Reagent sequences are not shown.

| gene | amplicon | Wolbachia per cell robust z, rep 1 | Wolbachia per cell robust z, rep 2 | Wolbachia per cell robust z, rep 3 | outcome |
| --- | --- | --- | --- | --- | --- |
| CG5455 | DRSC15805 | -0.254 | -3 | 0.592 | inactive |
| CG5455 | DRSC27389 | 0.101 | -1.41 | -0.869 | inactive |
| CG6026 | DRSC15950 | -0.166 | -0.295 | -5.71 | inactive |
| CG43349 | DRSC00039 | -1.47 | -1.17 | -0.534 | inactive |
| CG7406 | DRSC20042 | 0.178 | -0.107 | 0.368 | inactive |
| CG7406 | DRSC28709 | 0.645 | -1.08 | -1.8 | inactive |
| CG18249 | DRSC15318 | -0.113 | -0.00891 | 0.245 | inactive |
| tzn | DRSC11755 | 0.907 | -0.107 | -0.0564 | inactive |
| Naa30A | DRSC23214 | -1.53 | 0.391 | 0.589 | inactive |
| Naa30A | DRSC30080 | 0.547 | 0.354 | 0.416 | inactive |
| CG8188 | DRSC20090 | -0.114 | 0.318 | -0.0921 | inactive |
| CG8188 | DRSC27721 | 0.896 | 0.863 | 0.641 | inactive |
| Nf-YC | DRSC23106 | 0.238 | 0.168 | -0.343 | inactive |
| CG34328 | DRSC38793 | -0.293 | 0.766 | -6.3 | inactive |
| CG4080 | DRSC10398 | -8.43 | 0.0313 | -2.75 | active |
| Pak | DRSC12602 | -2.57 | -1.59 | -1.82 | inactive |
| Pak | DRSC23302 | 0.644 | 0.97 | 0.916 | inactive |
| Pak | DRSC40780 | -0.531 | -0.0826 | 0.714 | inactive |
| RunxA | DRSC20498 | -0.953 | -1.42 | -3.41 | inactive |
| RunxA | DRSC20524 | -3.23 | -0.179 | -0.272 | inactive |
| RunxA | DRSC21915 | 0.605 | 0.245 | -0.0101 | inactive |
| RunxA | DRSC25225 | -0.0131 | 1.36 | -0.183 | inactive |
| RunxA | DRSC27250 | 1.16 | -0.101 | 0.499 | inactive |
| Grl62c | DRSC38623 | -0.774 | -2.8 | -1.72 | inactive |
| MED8 | DRSC06426 | -1.9 | -1.58 | 0.453 | active |

Laid out differently: entries from further up.
CG5455 [DRSC15805] — Wolbachia per cell robust z, rep 1: -0.254; Wolbachia per cell robust z, rep 2: -3; Wolbachia per cell robust z, rep 3: 0.592; outcome: inactive
CG5455 [DRSC27389] — Wolbachia per cell robust z, rep 1: 0.101; Wolbachia per cell robust z, rep 2: -1.41; Wolbachia per cell robust z, rep 3: -0.869; outcome: inactive
CG6026 [DRSC15950] — Wolbachia per cell robust z, rep 1: -0.166; Wolbachia per cell robust z, rep 2: -0.295; Wolbachia per cell robust z, rep 3: -5.71; outcome: inactive
CG43349 [DRSC00039] — Wolbachia per cell robust z, rep 1: -1.47; Wolbachia per cell robust z, rep 2: -1.17; Wolbachia per cell robust z, rep 3: -0.534; outcome: inactive

The list goes on:
| gene | amplicon | Wolbachia per cell robust z, rep 1 | Wolbachia per cell robust z, rep 2 | Wolbachia per cell robust z, rep 3 | outcome |
| --- | --- | --- | --- | --- | --- |
| RpS24 | DRSC04414 | 0.678 | 0.401 | 1.07 | inactive |
| RpS24 | DRSC28412 | 2.38 | 4.56 | 4.84 | active |
| CG6659 | DRSC20003 | -0.242 | -0.541 | -0.367 | inactive |
| sra | DRSC17015 | 0.396 | 0.154 | 0.684 | inactive |
| CG34002 + CR43087 | DRSC26854 | -0.156 | -1.2 | -1.77 | inactive |
| Rab4 + CG42239 | DRSC05667 | 1.01 | 0.2 | 0.432 | inactive |
| CG15056 | DRSC19630 | -4.34 | -0.209 | -1.63 | inactive |
| emb | DRSC03528 | -2.58 | -0.526 | 0.0155 | inactive |
| CG31088 | DRSC13123 | 0.213 | -0.48 | 0.526 | inactive |
| CG31088 | DRSC25600 | 0.171 | -0.355 | 0.537 | inactive |
| karr | DRSC20681 | -1.91 | -1.4 | 0.569 | inactive |
| CG5327 | DRSC06930 | -0.527 | -2.97 | -2.83 | inactive |
| Lamtor3 | DRSC02815 | -0.3 | -0.12 | -0.554 | inactive |
| pasi1 | DRSC16299 | 0.337 | 0.0995 | 0.568 | inactive |
| pasi1 | DRSC22385 | -0.702 | 1.02 | -0.425 | inactive |
| pasi1 | DRSC26688 | 1.22 | 0.543 | 1.03 | inactive |
| AANATL7 | DRSC18616 | -0.0818 | 0.822 | -0.379 | inactive |
| CG15878 | DRSC08486 | -0.794 | -1.27 | -2.9 | inactive |
| CG15878 | DRSC28875 | -0.415 | -0.27 | -0.176 | inactive |
| Tsp42Ep | DRSC06871 | -0.274 | 0.000616 | 0.132 | inactive |
| NimB3 | DRSC37871 | -1 | -0.401 | -0.302 | inactive |
